These results are taken from PMC4485437 (Biochemistry, 2015).

Holding throughout (assay): Ki determination for transition-state analogues
Holding throughout (type): biochemical
Holding throughout (settings): read-out: Ki,MTDIA; 0.8 mM MTA

Assay [1] deals with VcMTANA113P (Vibrio cholerae serotype O1, UniProt Q9KPI8, A113P).
For assay [2], the target named is VcMTANA113P/V153I (VcMTANDOUBLE) (Vibrio cholerae serotype O1, UniProt Q9KPI8, A113P/V153I).
The target of assay [3] is VcMTANA113P/V153I/R158G (Vc[…]) (Vibrio cholerae serotype O1, UniProt Q9KPI8, A113P/R158G/V153I).

Broadly, the Ki is the equilibrium dissociation constant of an inhibitor or competing ligand from its target. Turning to `CSC[C@H]1CN(Cc2c[nH]c3c(N)ncnc23)C[C@@H]1O` [MTDIA, 4′-deaza-1′-aza-2′-deoxy-1′-(9-[^14C]methylene)-Immucillin-A], the Ki in assay [1] came out at 62 ± 7 pM; in assay [2] it was 3 ± 0.5 pM; in assay [3], 166 ± 22 pM.
